A mixed list of measured activities; the numbers were collected in NIAID ChemDB.

Shared fields: tests in culture; agent: Hepatitis B virus

Two numbers with a dash give a range or band. Inhibition is in % at the dose shown (toxicity tests: loss of growth or viability). An empty or dashed field is not shown. Conditions beyond the fields shown may differ between rows. ECn: concentration that inhibits the pathogen or its effect by n%.

smiles	method	strain	cell line	read-out	dose	value
C=C1C(COP(=O)(N[C@@H](C)C(=O)OC)Oc2ccccc2)C(O)C(F)C1n1cnc2c(N)ncnc21			Huh7	EC90		0.46 µM
CCCc1cc(=O)[nH]c(SCC2OC(OC)C(O)C2O)n1	ELISA		HepG2 2.2.15	inhibition	100 µM	86.6%
COc1cc2occc2cc1CNC(=O)c1c2n(c(=O)n1-c1ccc(OC(C)C)cc1)CCN(C(=O)c1ccc(Br)c(Cl)c1)C2	PCR		HepG2.117	EC50		0.1–0.5 µM
O=C(CNC(=O)c1ccc(F)cc1)Nc1ccc(Cl)nc1Cl	PCR		HepG2.2.15	EC90		3.1 µM
CNC(=O)c1ccc(-n2c(=O)c3c(n4ncc(CC5CCC5)c24)CN(C(=O)c2ccc(Br)c(C(F)(F)F)c2)[C@@H](C)C3)cc1	luminescence		HepG2.117	EC50		0.05–0.5 µM
O=C(NCc1ccccc1-c1ncccn1)c1c2n(c(=O)n1-c1ccc(OCC(F)(F)F)cc1)CCN(C(=O)c1ccc(Br)c(Cl)c1)C2	PCR		HepG2.117	EC50		<0.1 µM
COCCCOc1cc2c(cc1NC(=O)OC(C)(C)C)-c1c(cc(C(=O)O)c(=O)n1C1CC1)C(C)S2(=O)=O	antigen / visual reading / absorbance		Primary human hepatocytes	EC50		>0.5 µM
Nc1ccn([C@@H]2C=C(F)[C@H](CO)O2)c(=O)n1			HepAD38	EC90		0.25 µM
COC1OC(CSc2nc(C)cc(=O)[nH]2)C(O)C1O	ELISA		HepG2 2.2.15	inhibition	100 µM	27.7%
C[C@@H]1Cc2c(n3ncc(CC4CCC4)c3n(-c3ccc(-c4nncn4C)cc3)c2=O)CN1C(=O)c1ccc(Cl)c(C(F)(F)F)c1	luminescence		HepG2.117	EC50		≤0.05 µM
O=c1c(O)c(-c2ccc(O)c(O)c2)oc2cc(O)cc(O)c12	ELISA / antigen		HepG2.2.15	inhibition	30 µM	76.4%
CN(CC(=O)Nc1ccc(Cl)cc1Cl)C(=O)c1cccnc1	PCR		HepG2.2.15	EC90		>100 µM
Nc1nc2c(ncn2[C@H]2CO[C@@H](CO)O2)c(=O)[nH]1		Wild	AD38	EC90		>100 µM
CNc1n[nH]c2cc(-n3c(=O)c4c(n5ncc(CC6CC6)c35)CN(C(=O)c3ccc(Br)c(Cl)c3)CC4)ccc12	luminescence		HepG2.117	EC50		≤0.05 µM
Cc1cc(C)c(C#N)c(=N)o1		gtA	Huh7	inhibition	10 µM	>43%
Nc1ccn([C@@H]2CS[C@H](CO)O2)c(=O)n1			2.2.15	EC90		0.9 µM
CN(CC(=O)Nc1ccc(Cl)cc1Cl)C(=O)c1ccccn1	PCR		HepG2.2.15	EC90		>100 µM
COc1ccc(-n2c(C(=O)NCc3cc(OC)cc(OC)c3)c3n(c2=O)CCN(C(=O)c2ccc(Br)c(Cl)c2)C3)cc1	PCR		HepG2.117	EC50		0.1–0.5 µM
NC(=O)c1c(N)sc2c1CCCCC2		gtD	Huh7	inhibition	10 µM	43%
COC1OC(Cn2cc(C)c(=O)nc2SC)C(O)C1O	ELISA		HepG2 2.2.15	inhibition	100 µM	90.04%
COCCCOc1cc2c(cc1C)-c1c(cc(C(=O)O)c(=O)n1C1CCC1)C(C)S2(=O)=O	antigen / visual reading / absorbance		Primary human hepatocytes	EC50		0.1–0.5 µM
C#CCNC(=O)C(=O)c1cc(C(=O)Nc2ccc(F)c(F)c2)n(C)c1	PCR		HepAD38	EC90		>10 µM
COCCCOc1cc2c(cc1Cl)-c1c(cc(C(=O)O)c(=O)n1C1CC1)C1(CCC1)S2(=O)=O	antigen / visual reading / absorbance		Primary human hepatocytes	EC50		>0.5 µM
CCCCCCCCCCCC(=O)Nc1nc(N)nc2c1ncn2[C@H]1CO[C@@H](CO)O1	PCR		HepAD38	EC90		>10 µM
CC(C)NC(=O)c1c2n(c(=O)n1-c1ccccc1)CCN(C(=O)Nc1ccc(F)c(Cl)c1)C2	PCR		HepG2.2.15	EC50		0.5–5 µM
COC(=O)Oc1nsnc1N1CCOCC1		gtD	Huh7	inhibition	10 µM	>43%
COC1OC(Cn2c(C)cc(=O)nc2SC)C(O)C1O	ELISA		HepG2 2.2.15	inhibition	100 µM	15.8%
CCCC(=O)Nc1nc(N)nc2c1ncn2[C@H]1CO[C@@H](CO)O1	PCR		HepAD38	EC90		>10 µM
C[C@@]12C(=O)OC(=O)[C@]1(C)C1CCC2O1	PCR		HepG2.2.15	inhibition	0.003 µM	<40%
CC(=O)Nc1nc(N)nc2c1ncn2[C@H]1CO[C@@H](CO)O1	PCR		HepAD38	EC90		>10 µM
CCCOc1cc2c(cc1Cl)-c1c(cc(C(=O)O)c(=O)n1C1CC1)C(C)S2(=O)=O	antigen / visual reading / absorbance		Primary human hepatocytes	EC50		0.1–0.5 µM
O=C(O[C@@H]1Cc2c(O)cc(O)cc2O[C@@H]1c1cc(O)c(O)c(O)c1)c1cc(O)c(O)c(O)c1	PCR			inhibition	100 µM	72.4%
C[C@@]12C(=O)N(CCCN3C(=O)[C@@]4(C)C5CCC(O5)[C@@]4(C)C3=O)C(=O)[C@]1(C)C1CCC2O1	PCR		HepG2.2.15	inhibition	0.003 µM	<40%
Cc1sc2nc(-c3ccc([N+](=O)[O-])cc3)[nH]c(=O)c2c1C		gtD	Huh7	inhibition	10 µM	>43%
Nc1nc(=O)c2ncn([C@@H]3O[C@H](CO)[C@@H](O)[C@H]3O)c2c(=O)[nH]1	antigen		2.2.15	inhibition	10 µM	33%
CCOC(=O)[C@H](C)NP(=O)(OC[C@@H]1OC[C@H](n2cnc3c(OC)nc(N)nc32)O1)Oc1ccccc1		Wild	AD38	EC90		2.2 µM
C=C1[C@H](CO)[C@@H](O)C[C@@H]1n1cnc2c(=O)[nH]c(N)nc21			Huh7	EC90		0.033 µM
CCCCCCCCCC(=O)Nc1nc(N)nc2c1ncn2[C@H]1CO[C@@H](CO)O1	PCR		HepAD38	EC90		>10 µM
CCOc1cc2c(cc1Cl)-c1c(cc(C(=O)O)c(=O)n1C1CC1)C(C)S2(=O)=O	antigen / visual reading / absorbance		Primary human hepatocytes	EC50		0.05–0.1 µM
CCOC(=O)[C@H](C)NP(=O)(OC[C@@H]1OC[C@H](n2cnc3c(Cl)nc(N)nc32)O1)Oc1ccccc1		Wild	AD38	EC90		6.8 µM